The record followed here is BindingDB's records for doi:10.1016/j.bmcl.2018.10.045 (Merck, 2019).

Test [1] is described as follows: Inhibition of NS5B polymerase E1202G/T1280I/S2197P mutant in HCV genotype 2a infected in human HuH7 replicon cells after 72 hrs in presence of 10% FBS by luciferase-based reporter assay. Background: Replicon systems follow genome replication, usually without infectious particles.
Test [2] is described as follows: Inhibition of NS5B polymerase E1202G/T1280I/S2197P mutant in HCV genotype 1b infected in human HuH7 replicon cells after 72 hrs in presence of 50% human serum by luciferase-based reporter assay.
Test [3] is described as follows: Inhibition of NS5B polymerase E1202G/T1280I/S2197P mutant in HCV genotype 1b infected in human HuH7 replicon cells after 72 hrs in presence of 10% FBS by luciferase-based reporter assay.
The nature of test [4]: Inhibition of NS5B polymerase E1202G/T1280I/S2197P mutant in HCV genotype 1a infected in human HuH7 replicon cells after 72 hrs in presence of 10% FBS by luciferase-based reporter assay.
Test [5] is described as follows: Inhibition of NS5B polymerase C316Y mutant in HCV genotype 1A infected in HuH7 cells after 40 hrs by Taqman probe based RT-PCR analysis. Background: In qPCR the cycle at which signal appears reflects the starting amount.
Test [6] can be described thus: Inhibition of NS5B polymerase S365A mutant in HCV genotype 1A infected in HuH7 cells after 40 hrs by Taqman probe based RT-PCR analysis.

In general, EC50 refers to the midpoint of the concentration-response curve. In the case of `CNC(=O)c1c(-c2ccc(F)cc2)oc2cc(N(C)S(C)(=O)=O)c(-c3ccc4c(n3)-c3cc5c(F)cccc5n3CO4)cc12` [US9265773, 2], the EC50 in test [1] stood at 1.6 nM; in test [2], 27 nM; in test [3] it was 2.7 nM; in test [4], 2.4 nM; in test [5], 2.7 nM; in test [6] it was 1.1 nM.
